Measurements reported in PMC6854852.
The exact form of at least one protein or probe is not confirmed.

What was measured:
[1] = test system: SAN8-rBraR-phos (phosphorylated) D96V; assay: EMSA; conditions: acetyl phosphate-phosphorylated, Mg2+, stronger than MW2-BraR; EMSA: 5 ng DIG-labeled DNA, rBraR (given as 50 mM) in DIG Gel Shift Kit 2nd Generation (Roche) buffer, 6% native PAGE; binding temperature and pH not stated; recombinant protein; residues 1-221; protein details: 6xHis (pQE30); label: 3' DIG; probe letters rebuilt from the primers and the genome
[2] = test system: MW2-rBraR-phos (wild type, phosphorylated) (Staphylococcus aureus MW2); assay: EMSA; conditions: acetyl phosphate-phosphorylated, Mg2+; EMSA: 5 ng DIG-labeled DNA, rBraR (given as 50 mM) in DIG Gel Shift Kit 2nd Generation (Roche) buffer, 6% native PAGE; binding temperature and pH not stated; recombinant protein; residues 1-221; protein details: 6xHis (pQE30); label: 3' DIG; probe letters rebuilt from the primers and the genome

Sequence: ATCACTTAGAAAGCACCATTGCTTTTGTCTAATATGTACGATGAATCTGTATCCTCACTCAAAAATCTACTACGTAGCGATAGCTTTCAACTCTGTAAGGTTCAAACATTGAATTGTAAGTTTAGATAAAGGCTACTACTCCAAACATTATTTAAAATGAAATTAAATACAAAAGGAGTGAGACTATGACAATATTATCAGTGCAACATGTTTCAAAAACATACGG (double strand) [vraDE-F1]
- binding result [1]: binds
- binding result [2]: binds
